≈ marks a conversion by molar mass, not a printed value. Where “and” joins values, the source holds several entries; their conditions need not be identical. Identical values can stand only once.
What was measured:
[1] = system: Staphylococcus aureus EPI167; assay: Antibacterial test (MIC); format: cell-based; settings: top concentration 64 μg/mL
Bacillus subtilis MB964 = assay: Agar plate assay (inhibition halos); format: cell-based; settings: 10 μL of each of 10 two-fold dilutions starting at 64 μg/mL
Fa2N4 = assay: MTT cytotoxicity assay; format: cell-based; settings: non-tumoral immortalized human hepatocytes, 24 h of incubation
RCC4-VA = assay: MTT cytotoxicity assay; format: cell-based, human; settings: renal carcinoma cells, 24 h of incubation
HT29 = assay: MTT cytotoxicity assay; format: cell-based, human; settings: colon carcinoma cells, 24 h of incubation
MCF-7 = assay: MTT cytotoxicity assay; format: cell-based, human; settings: breast carcinoma cells, 24 h of incubation
A549 = assay: MTT cytotoxicity assay; format: cell-based, human; settings: lung carcinoma cells, 24 h of incubation
HepG2 = assay: MTT cytotoxicity assay; format: cell-based, human; settings: liver cancer cells, 24 h of incubation
RCC4-VHL = assay: MTT cytotoxicity assay; format: cell-based, human; settings: renal carcinoma cells, 24 h of incubation
[2] = system: Methicillin-resistant Staphylococcus aureus MRSA MB5393; assay: Antibacterial test (liquid growth inhibition, MIC); format: cell-based; settings: lowest concentration inhibiting ≥95% growth, 20 h at 37 °C, top concentration 64 μg/mL
[3] = system: Pseudomonas aeruginosa MB5919; assay: Antibacterial test (liquid growth inhibition, MIC); format: cell-based; settings: lowest concentration inhibiting ≥95% growth, 20 h at 37 °C, top concentration 64 μg/mL
Escherichia coli MB5746 = assay: Antibacterial test (liquid growth inhibition, MIC); format: cell-based; settings: lowest concentration inhibiting ≥95% growth, 20 h at 37 °C, top concentration 64 μg/mL
[4] = system: Acinetobacter baumannii MB5973; assay: Antibacterial test (liquid growth inhibition, MIC); format: cell-based; settings: lowest concentration inhibiting ≥95% growth, 20 h at 37 °C, top concentration 64 μg/mL
Escherichia coli MB2884 = assay: Antibacterial test (liquid growth inhibition, MIC); format: cell-based; settings: lowest concentration inhibiting ≥95% growth, 20 h at 37 °C, top concentration 64 μg/mL
Candida albicans MY1055 = assay: Antifungal assay (liquid growth inhibition, MIC); format: cell-based; settings: lowest concentration inhibiting ≥95% growth, 20 h at 37 °C, top concentration 64 μg/mL
[5] = system: HL-60, SMMC-7721, A549, MCF-7 and SW480 cell lines; settings: cited from earlier work
primary cultured neurons = settings: cited from earlier work

Compound | MIC S. aureus EPI167 [1] [µg/mL] | B. subtilis MB964 inhibition halo (Bacillus subtilis MB964) | IC50 Fa2N4 (Fa2N4) [µg/mL] | IC50 RCC4-VA (RCC4-VA) [µg/mL] | IC50 HT29 (HT29) [µg/mL] | IC50 MCF-7 (MCF-7) [µg/mL] | IC50 A549 (A549) [µg/mL] | IC50 HepG2 (HepG2) [µg/mL] | IC50 RCC4-VHL (RCC4-VHL) [µg/mL] | MIC MRSA MB5393 [2] [µg/mL] | MIC P. aeruginosa MB5919 [3] [µg/mL] | MIC E. coli MB5746 (Escherichia coli MB5746) [µg/mL] | MIC A. baumannii MB5973 [4] [µg/mL] | MIC E. coli MB2884 (Escherichia coli MB2884) [µg/mL] | MIC C. albicans MY1055 (Candida albicans MY1055) | other results
CC1=C[C@H]2O[C@@H]3C[C@@H](O)[C@](C)([C@@]2(C)CC1)[C@]31CO1 | > 64 | no halo | >20 | >20 | > 20 | 4.42 (≈ 17.7 µM) | > 20 | >20 | >20 | > 64 | > 64 | > 64 | > 64 | > 64 | 8 to 16 µg/mL and 8 to 32 µg/mL | IC50 MCF-7 (MCF-7; listed as Trichodermol (2)): still exhibited good activity
8-deoxytrichothecin |  |  |  |  |  |  |  |  |  |  |  |  |  |  |  | cell viabilities [5]: significantly reduced the cell viabilities; accumulation of glucosylceramide (GlcCer) and reduction of lactosylceramide (LacCer) formation (primary cultured neurons): induced the accumulation of glucosylceramide (GlcCer)
Trichodermin | > 64 | no halo | 12.09 | 14.19 | > 20 | <1.25 | > 20 | >20 | >20 | > 64 | > 64 | > 64 | > 64 | > 64 | < 4 µg/mL | IC50 Fa2N4 (Fa2N4; listed as Trichodermin (1)): moderately inhibited; IC50 RCC4-VA (RCC4-VA; listed as Trichodermin (1)): moderately inhibited; IC50 MCF-7 (MCF-7; listed as Trichodermin (1)): intense cytotoxic activity; MIC C. albicans MY1055 (Candida albicans MY1055; listed as trichodermin (1)): < 4 µg/mL

— publication PMC6833013 (Molecules, 2019)
